Assay results: ChEMBL document CHEMBL4811225 (J Med Chem, 2021)

Amino acid sequences for entries named in this document (tags omitted).
UniProt P04757, whole entry, looked up: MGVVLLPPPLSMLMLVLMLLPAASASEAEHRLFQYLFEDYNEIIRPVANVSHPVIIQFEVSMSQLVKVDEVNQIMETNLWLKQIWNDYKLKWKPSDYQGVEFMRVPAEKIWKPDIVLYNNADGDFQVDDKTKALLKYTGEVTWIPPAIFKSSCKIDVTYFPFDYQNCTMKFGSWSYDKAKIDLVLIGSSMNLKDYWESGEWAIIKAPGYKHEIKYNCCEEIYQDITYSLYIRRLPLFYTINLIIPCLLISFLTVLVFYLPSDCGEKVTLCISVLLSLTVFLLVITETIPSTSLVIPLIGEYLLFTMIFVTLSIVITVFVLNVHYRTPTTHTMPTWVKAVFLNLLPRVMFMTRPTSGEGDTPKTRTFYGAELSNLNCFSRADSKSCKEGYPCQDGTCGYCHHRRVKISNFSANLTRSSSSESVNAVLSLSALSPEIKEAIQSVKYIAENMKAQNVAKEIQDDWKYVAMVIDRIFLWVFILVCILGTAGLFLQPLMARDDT
UniProt P12392, whole entry, looked up: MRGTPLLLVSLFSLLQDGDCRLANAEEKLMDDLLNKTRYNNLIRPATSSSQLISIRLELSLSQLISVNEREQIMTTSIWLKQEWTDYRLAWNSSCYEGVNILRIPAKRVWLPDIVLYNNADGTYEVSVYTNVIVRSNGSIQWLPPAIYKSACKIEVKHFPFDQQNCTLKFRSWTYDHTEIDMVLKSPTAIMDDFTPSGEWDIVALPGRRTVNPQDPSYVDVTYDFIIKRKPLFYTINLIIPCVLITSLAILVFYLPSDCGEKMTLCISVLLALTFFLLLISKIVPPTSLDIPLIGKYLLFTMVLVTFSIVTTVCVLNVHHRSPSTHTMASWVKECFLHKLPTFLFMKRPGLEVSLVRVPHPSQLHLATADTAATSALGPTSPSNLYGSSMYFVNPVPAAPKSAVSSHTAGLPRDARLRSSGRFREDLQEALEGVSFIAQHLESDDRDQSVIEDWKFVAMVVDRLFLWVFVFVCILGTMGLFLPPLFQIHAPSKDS
UniProt P43143, whole entry, looked up: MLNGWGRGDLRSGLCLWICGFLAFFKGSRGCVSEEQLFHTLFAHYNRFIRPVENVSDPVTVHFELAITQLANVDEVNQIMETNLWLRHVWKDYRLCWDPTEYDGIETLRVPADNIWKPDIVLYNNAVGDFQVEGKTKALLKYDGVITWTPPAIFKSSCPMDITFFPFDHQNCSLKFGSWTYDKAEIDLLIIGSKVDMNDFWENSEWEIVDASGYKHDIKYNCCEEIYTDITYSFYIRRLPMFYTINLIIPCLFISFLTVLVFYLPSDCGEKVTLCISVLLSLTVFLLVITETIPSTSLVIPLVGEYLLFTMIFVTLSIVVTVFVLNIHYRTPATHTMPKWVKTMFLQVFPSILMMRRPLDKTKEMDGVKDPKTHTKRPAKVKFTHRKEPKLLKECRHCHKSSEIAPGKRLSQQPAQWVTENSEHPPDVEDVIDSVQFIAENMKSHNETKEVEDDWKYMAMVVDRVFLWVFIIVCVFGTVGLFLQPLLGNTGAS
UniProt P30926, whole entry, looked up: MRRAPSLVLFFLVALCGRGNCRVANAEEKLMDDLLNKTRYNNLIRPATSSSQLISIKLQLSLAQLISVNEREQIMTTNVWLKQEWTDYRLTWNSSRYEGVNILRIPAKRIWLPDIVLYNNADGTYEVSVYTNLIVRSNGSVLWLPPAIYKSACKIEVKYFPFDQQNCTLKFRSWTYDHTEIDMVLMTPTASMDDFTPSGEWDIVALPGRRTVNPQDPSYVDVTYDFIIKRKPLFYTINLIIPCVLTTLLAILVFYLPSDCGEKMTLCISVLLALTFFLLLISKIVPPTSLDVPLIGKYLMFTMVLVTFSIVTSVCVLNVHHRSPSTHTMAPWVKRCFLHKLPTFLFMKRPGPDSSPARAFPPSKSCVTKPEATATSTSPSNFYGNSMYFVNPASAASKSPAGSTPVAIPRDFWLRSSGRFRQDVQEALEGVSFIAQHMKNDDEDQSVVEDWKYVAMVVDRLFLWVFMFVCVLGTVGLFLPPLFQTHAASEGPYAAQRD
UniProt P32297, whole entry, looked up: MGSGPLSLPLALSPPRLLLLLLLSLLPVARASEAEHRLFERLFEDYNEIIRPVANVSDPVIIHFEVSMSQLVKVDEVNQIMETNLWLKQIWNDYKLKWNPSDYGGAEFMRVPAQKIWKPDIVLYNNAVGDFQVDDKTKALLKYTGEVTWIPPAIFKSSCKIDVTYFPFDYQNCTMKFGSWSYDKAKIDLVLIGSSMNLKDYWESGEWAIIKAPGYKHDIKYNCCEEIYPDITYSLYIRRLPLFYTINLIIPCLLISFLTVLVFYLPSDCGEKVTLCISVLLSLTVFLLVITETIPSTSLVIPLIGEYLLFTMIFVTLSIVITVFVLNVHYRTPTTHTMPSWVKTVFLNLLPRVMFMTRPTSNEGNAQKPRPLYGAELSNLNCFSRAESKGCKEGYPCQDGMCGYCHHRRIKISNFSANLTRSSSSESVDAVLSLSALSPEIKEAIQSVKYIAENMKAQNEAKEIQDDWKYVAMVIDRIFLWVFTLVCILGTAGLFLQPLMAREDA
UniProt Q15825, whole entry, looked up: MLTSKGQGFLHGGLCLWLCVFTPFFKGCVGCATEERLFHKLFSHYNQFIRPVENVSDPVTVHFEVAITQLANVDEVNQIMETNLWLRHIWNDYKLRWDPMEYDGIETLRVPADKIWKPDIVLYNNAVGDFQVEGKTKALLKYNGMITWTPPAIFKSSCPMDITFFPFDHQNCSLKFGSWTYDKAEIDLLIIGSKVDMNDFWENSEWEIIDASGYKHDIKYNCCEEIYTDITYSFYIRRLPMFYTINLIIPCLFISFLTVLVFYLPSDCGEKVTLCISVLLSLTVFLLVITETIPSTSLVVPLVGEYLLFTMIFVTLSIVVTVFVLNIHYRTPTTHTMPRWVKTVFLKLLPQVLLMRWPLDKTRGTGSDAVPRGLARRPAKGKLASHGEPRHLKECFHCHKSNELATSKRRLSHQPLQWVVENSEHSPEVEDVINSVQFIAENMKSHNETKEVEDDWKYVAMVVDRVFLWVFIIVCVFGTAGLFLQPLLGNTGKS

How the values were obtained:
[1] = molecular target: T1, Nicotinic acetylcholine receptor alpha6/alpha3/beta4 (Rattus norvegicus) (UniProt P04757+P12392+P43143); assay: Inhibition of rat alpha6/alpha3beta4 nAChR expressed in Xenopus laevis oocytes assessed as inhibition of acetylcholine-induced current response measured after 5 min by two-electrode voltage-clamp method relative to peIA; assay type: cell-based; details: Oocyte
[2] = molecular target: T2, Nicotinic acetylcholine receptor alpha6/alpha3/beta4 (Homo sapiens, UniProt P30926+P32297+Q15825); assay: Inhibition of human alpha6/alpha3beta4 nAChR expressed in Xenopus laevis oocytes assessed as inhibition of acetylcholine-induced current response at 10 uM in presence of peIA by two-electrode voltage-clamp method relative to control; details: Oocyte
[3] = molecular target: T2, Nicotinic acetylcholine receptor alpha6/alpha3/beta4; assay: Inhibition of human alpha6/alpha3beta4 nAChR expressed in Xenopus laevis oocytes assessed as inhibition of acetylcholine-induced current response measured after 5 min by two-electrode voltage-clamp relative to peIA; assay type: cell-based; details: Oocyte
[4] = molecular target: T1, Nicotinic acetylcholine receptor alpha6/alpha3/beta4 (Rattus norvegicus); assay: Inhibition of rat alpha6/alpha3beta4 nAChR expressed in Xenopus laevis oocytes assessed as inhibition of acetylcholine-induced current response at 10 uM measured after 5 min by two-electrode voltage-clamp method relative to control; assay type: cell-based; details: Oocyte
[5] = molecular target: T1, Nicotinic acetylcholine receptor alpha6/alpha3/beta4 (Rattus norvegicus); assay: Inhibition of rat alpha6/alpha3beta4 nAChR expressed in Xenopus laevis oocytes assessed as inhibition of acetylcholine-induced current response at 10 uM in presence of peIA by two-electrode voltage-clamp method relative to control; assay type: cell-based; details: Oocyte
[6] = molecular target: T2, Nicotinic acetylcholine receptor alpha6/alpha3/beta4; assay: Inhibition of human alpha6/alpha3beta4 nAChR expressed in Xenopus laevis oocytes assessed as inhibition of acetylcholine-induced current response at 10 uM measured after 5 min by two-electrode voltage-clamp method relative to control; assay type: cell-based; details: Oocyte
[7] = molecular target: T1, Nicotinic acetylcholine receptor alpha6/alpha3/beta4 (Rattus norvegicus); assay: Inhibition of rat alpha6/alpha3beta4 nAChR expressed in Xenopus laevis oocytes assessed as inhibition of acetylcholine-induced current response by measuring fold change measured after 5 min by two-electrode voltage-clamp method relative to peIA; assay type: cell-based; details: Oocyte
Rattus norvegicus = species on record: Rattus norvegicus; assay: Selectivity ratio of IC50 for rat alpha6beta4 nAChR to IC50 for rat alpha6/alpha3beta4 nAChR expressed in Xenopus laevis oocytes
[8] = molecular target: T2, Nicotinic acetylcholine receptor alpha6/alpha3/beta4; assay: Inhibition of human alpha6/alpha3beta4 nAChR expressed in Xenopus laevis oocytes assessed as inhibition of acetylcholine-induced current response by measuring fold change measured after 5 min by two-electrode voltage-clamp method relative to peIA; assay type: cell-based; details: Oocyte

| SMILES | deltalogIC50 [1] | inhibition [2] [%] | deltalogIC50 [3] | inhibition [4] [%] | inhibition [5] [%] | inhibition [6] [%] | fold change (FC) [7] | Ratio IC50 (Rattus norvegicus) | fold change (FC) [8] |
| --- | --- | --- | --- | --- | --- | --- | --- | --- | --- |
| CC(C)C[C@@H]1NC(=O)[C@H](CCC(=O)O)NC(=O)[C@@H]2CCCN2C(=O)[C@H](Cc2cnc[nH]2)NC(=O)[C@H](CC(N)=O)NC(=O)[C@H](CC(=O)O)NC(=O)[C@H](CO)NC(=O)[C@@H]2CSSC[C@H](NC(=O)CN)C(=O)N[C@@H](CSSC[C@@H](C(N)=O)NC1=O)C(=O)N[C@@H](CO)C(=O)N[C@@H](Cc1cnc[nH]1)C(=O)N1CCC[C@H]1C(=O)N[C@@H](C)C(=O)N2 | > 1.9 | 86 | > 3 | > 10 | 87 | 89 | – | – | – |
| CC(C)C[C@@H]1NC(=O)[C@H](CCC(=O)O)NC(=O)[C@@H]2CCCN2C(=O)[C@H](Cc2cnc[nH]2)NC(=O)[C@H](CC(N)=O)NC(=O)[C@H](C(C)C)NC(=O)[C@H](CO)NC(=O)[C@@H]2CSSC[C@H](NC(=O)CN)C(=O)N[C@@H](CSSC[C@@H](C(N)=O)NC1=O)C(=O)N[C@@H](CO)C(=O)N[C@@H](Cc1cnc[nH]1)C(=O)N1CCC[C@H]1C(=O)N[C@@H](C(C)C)C(=O)N2 | -0.9 | – | -0.3 | – | – | – | > 3 | < 2 | < 3 |
| CC(C)C[C@@H]1NC(=O)[C@H](CCC(=O)O)NC(=O)[C@@H]2CCCN2C(=O)[C@H](Cc2cnc[nH]2)NC(=O)[C@H](CCCNC(=N)N)NC(=O)[C@H](C(C)C)NC(=O)[C@H](CO)NC(=O)[C@@H]2CSSC[C@H](NC(=O)CN)C(=O)N[C@@H](CSSC[C@@H](C(N)=O)NC1=O)C(=O)N[C@@H](CO)C(=O)N[C@@H](Cc1cnc[nH]1)C(=O)N1CCC[C@H]1C(=O)N[C@@H](C)C(=O)N2 | -0.9 | – | -0.5 | – | – | – | 5 | < 2 | 3 |
| CC(C)C[C@@H]1NC(=O)[C@H](CCC(=O)O)NC(=O)[C@@H]2CCCN2C(=O)[C@H](Cc2cnc[nH]2)NC(=O)[C@H](CC(N)=O)NC(=O)[C@H](C(C)C)NC(=O)[C@H](CO)NC(=O)[C@@H]2CSSC[C@H](NC(=O)CN)C(=O)N[C@@H](CSSC[C@@H](C(N)=O)NC1=O)C(=O)N[C@@H]([C@@H](C)O)C(=O)N[C@@H](Cc1cnc[nH]1)C(=O)N1CCC[C@H]1C(=O)N[C@@H](C)C(=O)N2 | > 1.9 | 79 | > 3 | – | 93 | – | 5 | – | – |
| CC[C@H](C)[C@@H]1NC(=O)[C@H](CCC(=O)O)NC(=O)[C@@H]2CCCN2C(=O)[C@H](Cc2cnc[nH]2)NC(=O)[C@H](CCCNC(=N)N)NC(=O)[C@H](C(C)C)NC(=O)[C@H](Cc2cnc[nH]2)NC(=O)[C@@H]2CSSC[C@H](NC(=O)CN)C(=O)N[C@@H](CSSC[C@@H](C(N)=O)NC1=O)C(=O)N[C@@H](CO)C(=O)N[C@@H](Cc1cnc[nH]1)C(=O)N1CCC[C@H]1C(=O)N[C@@H](C(C)C)C(=O)N2 | -1.8 | – | -1.2 | – | – | – | 43 | – | 16 |
| CC(C)C[C@@H]1NC(=O)[C@H](CCC(=O)O)NC(=O)[C@@H]2CCCN2C(=O)[C@H](Cc2cnc[nH]2)NC(=O)[C@H](CC(N)=O)NC(=O)[C@H](C(C)C)NC(=O)[C@H](CC(N)=O)NC(=O)[C@@H]2CSSC[C@H](NC(=O)CN)C(=O)N[C@@H](CSSC[C@@H](C(N)=O)NC1=O)C(=O)N[C@@H](CO)C(=O)N[C@@H](Cc1cnc[nH]1)C(=O)N1CCC[C@H]1C(=O)N[C@@H](C)C(=O)N2 | -1 | – | -0.5 | – | – | – | > 10 | < 2 | 3 |
| CC[C@H](C)[C@@H]1NC(=O)[C@H](CCC(=O)O)NC(=O)[C@@H]2CCCN2C(=O)[C@H](Cc2cnc[nH]2)NC(=O)[C@H](CC(N)=O)NC(=O)[C@H](C(C)C)NC(=O)[C@H](CO)NC(=O)[C@@H]2CSSC[C@H](NC(=O)CN)C(=O)N[C@@H](CSSC[C@@H](C(N)=O)NC1=O)C(=O)N[C@@H](CO)C(=O)N[C@@H](Cc1cnc[nH]1)C(=O)N1CCC[C@H]1C(=O)N[C@@H](C)C(=O)N2 | -0.1 | – | -0.4 | – | – | – | < 3 | < 2 | < 3 |
| CC(C)C[C@@H]1NC(=O)[C@H](CCC(=O)O)NC(=O)[C@@H]2CCCN2C(=O)[C@H](C)NC(=O)[C@H](CC(N)=O)NC(=O)[C@H](C(C)C)NC(=O)[C@H](CO)NC(=O)[C@@H]2CSSC[C@H](NC(=O)CN)C(=O)N[C@@H](CSSC[C@@H](C(N)=O)NC1=O)C(=O)N[C@@H](CO)C(=O)N[C@@H](Cc1cnc[nH]1)C(=O)N1CCC[C@H]1C(=O)N[C@@H](C)C(=O)N2 | > 1.9 | – | – | 96 | 79 | – | 3 | – | – |
| CC(C)C[C@@H]1NC(=O)[C@H](CCC(N)=O)NC(=O)[C@@H]2CCCN2C(=O)[C@H](Cc2cnc[nH]2)NC(=O)[C@H](CC(N)=O)NC(=O)[C@H](C(C)C)NC(=O)[C@H](CO)NC(=O)[C@@H]2CSSC[C@H](NC(=O)CN)C(=O)N[C@@H](CSSC[C@@H](C(N)=O)NC1=O)C(=O)N[C@@H](CO)C(=O)N[C@@H](Cc1cnc[nH]1)C(=O)N1CCC[C@H]1C(=O)N[C@@H](C)C(=O)N2 | 0.1 | – | 0.3 | – | – | – | < 3 | – | < 2 |
| CC(C)C[C@@H]1NC(=O)[C@H](C)NC(=O)[C@@H]2CCCN2C(=O)[C@H](Cc2cnc[nH]2)NC(=O)[C@H](CCCNC(=N)N)NC(=O)[C@H](C)NC(=O)[C@H](CCCNC(=N)N)NC(=O)[C@@H]2CSSC[C@H](NC(=O)CN)C(=O)N[C@@H](CSSC[C@@H](C(N)=O)NC1=O)C(=O)N[C@@H](CO)C(=O)N[C@@H](Cc1cnc[nH]1)C(=O)N1CCC[C@H]1C(=O)N[C@@H](C(C)C)C(=O)N2 | 1.9 | – | 0.9 | – | – | – | 73 | – | 8 |
| CC(C)C[C@@H]1NC(=O)[C@H](CCC(=O)O)NC(=O)[C@@H]2CCCN2C(=O)[C@H](Cc2cnc[nH]2)NC(=O)[C@H](CCCCN)NC(=O)[C@H](C(C)C)NC(=O)[C@H](CO)NC(=O)[C@@H]2CSSC[C@H](NC(=O)CN)C(=O)N[C@@H](CSSC[C@@H](C(N)=O)NC1=O)C(=O)N[C@@H](CO)C(=O)N[C@@H](Cc1cnc[nH]1)C(=O)N1CCC[C@H]1C(=O)N[C@@H](C)C(=O)N2 | -0.5 | – | -0.7 | – | – | – | 5 | – | 3 |
| CC(C)C[C@@H]1NC(=O)[C@H](CCC(=O)O)NC(=O)[C@@H]2CCCN2C(=O)[C@H](Cc2cnc[nH]2)NC(=O)[C@H](CC(N)=O)NC(=O)[C@H](C(C)C)NC(=O)[C@H](CC(=O)O)NC(=O)[C@@H]2CSSC[C@H](NC(=O)CN)C(=O)N[C@@H](CSSC[C@@H](C(N)=O)NC1=O)C(=O)N[C@@H](CO)C(=O)N[C@@H](Cc1cnc[nH]1)C(=O)N1CCC[C@H]1C(=O)N[C@@H](C)C(=O)N2 | > 1.9 | – | 2.3 | 77 | 86 | – | – | – | – |
| CC(C)C[C@@H]1NC(=O)[C@H](CCC(=O)O)NC(=O)[C@@H]2CCCN2C(=O)[C@H](Cc2cnc[nH]2)NC(=O)[C@H](CC(N)=O)NC(=O)[C@H](C(C)C)NC(=O)[C@H](CO)NC(=O)[C@@H]2CSSC[C@H](NC(=O)CN)C(=O)N[C@@H](CSSC[C@@H](C(N)=O)NC1=O)C(=O)N[C@@H](CO)C(=O)N[C@@H](Cc1cnc[nH]1)C(=O)N[C@@H](C)C(=O)N[C@@H](C)C(=O)N2 | > 1.9 | – | 2.5 | 82 | 82 | – | 3 | – | – |
| CC(C)C[C@@H]1NC(=O)[C@H](CCC(=O)O)NC(=O)[C@@H]2CCCN2C(=O)[C@H](Cc2cnc[nH]2)NC(=O)[C@H](CC(N)=O)NC(=O)[C@H](C(C)C)NC(=O)[C@H](CO)NC(=O)[C@@H]2CSSC[C@H](NC(=O)CN)C(=O)N[C@@H](CSSC[C@@H](C(N)=O)NC1=O)C(=O)N[C@@H](CO)C(=O)N[C@@H](C)C(=O)N1CCC[C@H]1C(=O)N[C@@H](C)C(=O)N2 | > 1.9 | – | 3.1 | 77 | 78 | – | 3 | – | – |
| CC(C)C[C@@H]1NC(=O)[C@H](CCC(=O)O)NC(=O)[C@@H]2CCCN2C(=O)[C@H](Cc2cnc[nH]2)NC(=O)[C@H](CCCNC(=N)N)NC(=O)[C@H](C(C)C)NC(=O)[C@H](Cc2cnc[nH]2)NC(=O)[C@@H]2CSSC[C@H](NC(=O)CN)C(=O)N[C@@H](CSSC[C@@H](C(N)=O)NC1=O)C(=O)N[C@@H](CO)C(=O)N[C@@H](Cc1cnc[nH]1)C(=O)N1CCC[C@H]1C(=O)N[C@@H](C(C)C)C(=O)N2 | -1.9 | – | -1.4 | – | – | – | 43 | – | 16 |
